# Screening data, single-dose tests

Measurements from “University of Dundee, Small-Polar-MMV Screening Library” (2021), ChEMBL document CHEMBL3988442.

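Phenotypic screen: M. tuberculosis growth, glucose 7H9 medium, 3 days; the read-out is not stated. Tested at 500 µM. The record gives no direction; compounds that gave an IC50 in retests scored well above the rest, so higher reads as more growth inhibition. Size under these conditions: about 18,000 compounds, about 1,400 of them at 50% or above in at least one test.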

The filed quantity is “Percent Effect” (%). The controls that fix the scale are not given in the record; negative values are as filed. Many other results are left out here, so strong results are more common than in the screen.

compound	Percent Effect
CC(C)n1ccnc1CN1CCN(c2nc[nH]n2)CC1	3.897%
NCc1ccc(N2CCOCC2)cc1	-6.967%
CCNC(=O)Cc1nc(-c2ccncc2)n[nH]1	3.614%
Cc1ccsc1CNC(=O)C(C)n1cncn1 (stereo not drawn)	-14.2%
CNC1CCN(c2cc(OC)cc(OC)c2)C1 (stereo not drawn)	70.54%
OCCOC1CCCN(c2nc3ccccc3[nH]2)C1 (stereo not drawn)	24.56%
O=C(NCC1CCCO1)c1cccc2cccnc12 (stereo not drawn)	-11.07%
CS(=O)(=O)N[C@@H]1CCOC[C@H]1OCc1cscn1	6.817%
Cn1ccc(C(=O)Nc2ccc(Br)cn2)n1	6.94%
CC(C)CCOCC(=O)NC1CCc2nccn2C1 (stereo not drawn)	-2.2%
O=C(Nc1ccc(Cl)cn1)c1ccncc1	52.05%
Cc1oc(C)c(S(N)(=O)=O)c1C(=O)Nc1ccccc1	21.87%
c1cncc(CCNCc2cccc3c2OCCO3)c1	24.02%
N[C@H]1CN(S(=O)(=O)c2cccc(F)c2)C[C@@H]1C1CC1	24%
O=C1CN(C(=O)c2cc3cccc(Br)c3o2)CCN1	6.077%
CC(CO)N(C)C(=O)c1cccc2cc[nH]c12 (stereo not drawn)	6.081%
CCn1cnnc1CCNC(=O)c1cnn(C(C)C)c1	5.935%
COc1ccccc1OCC(=O)NCC1CCOCC1	22.52%
O=C(COc1ccc(F)cc1)NC1CC1	44.52%
CNc1ncccc1C(=O)N1CC[C@](C)(O)[C@@H](O)C1	8.354%
Cc1cc2c(cc1CN)OCCO2	17.27%
c1ccc(COC2CCNC2)nc1 (stereo not drawn)	-3.885%
NCc1nc(-c2ccc(Cl)cc2)c[nH]1	72.19%
CCC(N)(CC)CNS(=O)(=O)N(C)C1CCCCC1	30.33%
COc1cccc([C@H]2C[C@H](N)C2)c1	49.49%
OC1(C(F)(F)F)CCNC1 (stereo not drawn)	-5.269%
Cc1ccc(NC(=O)CCSCC(N)=O)c(C)c1	27.7%
COc1ccc(CNS(=O)(=O)c2c(N)noc2C)cc1	21.9%
CN(Cc1cn(-c2ccc(Cl)c(Cl)c2)nn1)S(C)(=O)=O	3.694%
CCN(CC)c1ncccc1CNC(=O)C1CCCO1 (stereo not drawn)	18.38%
CCC(=O)c1ccc(C(=O)OC)cc1	5.202%
O=C(Cc1cccs1)NCC1CCCCC(=O)N1 (stereo not drawn)	5.062%
COCCc1ccc2oc(N)nc2c1	6.643%
Nc1cnccc1OCc1ccccc1	35.96%
COCCOCCn1cc(F)ccc1=O	-9.678%
CC(C)Nc1ncccc1C(=O)Nc1nncs1	-0.3607%
CC(=O)NCCCOCC1CCCO1 (stereo not drawn)	14.13%
COCCNC(=O)c1ccc(CN2CCCCC2)cc1	9.969%
Cc1ccc(S(=O)(=O)NCc2nnc(N)s2)cc1	25.77%
[H][C@]12CNC[C@]([H])(CN(S(=O)(=O)c3ccc(OC)cc3)C1)O2	17.86%
CCOc1cccc(CNCCO)c1	7.972%
CC[C@@H]1C[C@H]1NC(=O)N1CCC(CS(N)(=O)=O)CC1	13.22%
COC(=O)c1oc(CN2CCC(CO)CC2)cc1C	-6.487%
CN(C(=O)c1cnccn1)C1(C#N)CCC1	9.783%
CCN1C[C@H](NC(=O)c2ccc(Cl)s2)[C@@H](OC)C1	66.77%
CCO[C@H]1CN(c2ccc(C(N)=O)cn2)C[C@@H]1O	6.043%
FC(F)Oc1cccc(N2CCNCC2)c1	66.41%
C[C@@H](CO)CCNc1cc(C2CC(N)C2)ncn1 (stereo partly drawn)	5.604%
Cc1cc(=O)n(C)cc1NC(=O)c1ccncc1Cl	-4.199%
O=C(Nc1ccccc1F)c1ncccn1	-8.539%
Cc1nnc(SCC(N)=O)[nH]1	1.792%
NS(=O)(=O)N1CCN(Cc2ccccc2)CC1	4.382%
CC(C)(N)c1nc(C2CC2)cc(=O)[nH]1	-3.474%
CC(C#N)CN(C)S(=O)(=O)N1CCCN(CCO)CC1 (stereo not drawn)	-2.506%
CN(C)C(=O)CN(C)c1ncc(C(F)(F)F)cc1Cl	31.5%
NC(=O)CC(NCc1ccc(Br)o1)C1CCOCC1 (stereo not drawn)	-12.49%
CC1CN(c2nccc(N(C)C)n2)CCS1(=O)=O (stereo not drawn)	16.12%
Cc1cccc(NC(=O)NCc2ccnn2C)n1	21.56%
COC(=O)CSc1nc(N)c2ccsc2n1	74.69%
O=c1cc(CO)nc2ccccn12	-4.48%
Cc1ccsc1C(=O)Nc1ccc2c(c1)NC(=O)CO2	44.1%
CN(C(=O)c1cccs1)C1CCS(=O)(=O)C1 (stereo not drawn)	11.5%
COCCCNC(=O)NCCOc1cccc(C)c1	32.67%
CCOc1ccc(Cl)cc1C(N)=O	30.21%
CCC(NC(=O)NCC(=O)N1CCCC1)c1nccs1 (stereo not drawn)	-10.37%
O=C(NCC1CC1)c1cccc2nn[nH]c12	70.94%
COC(=O)[C@H](C)NC(=O)c1noc2c1CCCCC2	62.66%
CO[C@H]1CNCC1NC(=O)Cc1cccc(Cl)c1 (stereo partly drawn)	22.46%
CC(=O)c1sc(NCCc2ccccn2)nc1C	56.06%
CC(=O)NCC1CCN(Cc2ccccc2)C1 (stereo not drawn)	21.87%
CC(C)Cn1[nH]ccc1=NC(=O)Cn1cnc(C#N)n1	-1.645%
CN(Cc1ccc2c(c1)OCO2)S(=O)(=O)c1cccs1	32.9%
C=C(C)c1nc(C#N)c(NCc2ccco2)o1	84.11%
CCNC(=O)c1cccc(CN)c1	0.5806%
CC(OC(=O)c1nn(C)c(=O)c2ccccc12)C(N)=O (stereo not drawn)	-21.53%
COCc1nn(CC(=O)N(C)C2CCCCC2)c(=O)o1	43.55%
O=C(CN1CCCN(CC2CCC2)CC1)N1CCCC1	-3.044%
COC(=O)C1CN(Cc2ccncc2Cl)CCO1 (stereo not drawn)	-3.229%
COCCOc1ccc(NC(=O)CSC(C)(C)C)cn1	-154.2%

Repeated from the top, 5 entries:

compound	Percent Effect
CC(C)n1ccnc1CN1CCN(c2nc[nH]n2)CC1	3.897%
NCc1ccc(N2CCOCC2)cc1	-6.967%
CCNC(=O)Cc1nc(-c2ccncc2)n[nH]1	3.614%
Cc1ccsc1CNC(=O)C(C)n1cncn1 (stereo not drawn)	-14.2%
CNC1CCN(c2cc(OC)cc(OC)c2)C1 (stereo not drawn)	70.54%